Results of unrelated studies side by side (data: NIAID ChemDB).

All rows: tests in culture; organism: Herpes simplex virus 1; read-out: EC50

Conditions beyond the fields shown may differ between rows. ECn is the concentration giving n% inhibition of infection, replication or growth. An empty or dashed field is not shown. Two numbers with a dash give a range or band.

structure,strain or isolate,method,result
Nc1nc2c(ncn2COC(CO)CO)c(=O)[nH]1,,,1 µM
Cc1cn(C[C@H]2C[C@H]2CO)c(=O)[nH]c1=O,,cytopathic effect,>100 µg/mL
C=C1[C@H](CO)[C@H]1Cn1cnc2c(N)nc(N)nc21,,,>100 µM
Nc1ccn(CC=C(CO)CO)c(=O)n1,,,>100 µg/mL
Nc1ncnc2c1ncn2C[C@H]1C[C@H]1CO,,cytopathic effect,>100 µg/mL
Nc1nc2c(ncn2[C@@H]2C=C[C@H](CO)[C@@H](O)C2)c(=O)[nH]1,KOS,,0.002 µg/mL
Nc1nc2c(ncn2[C@@H]2C=C[C@H](CO)CC2)c(=O)[nH]1,,,0.01–0.1 µM
C[C@@H]1CC[C@]2(C(=O)O)CC[C@]3(C)C(CCC4[C@@]5(C)CC[C@H](O)C(C)(C)C5CC[C@]43C)C2[C@H]1C,,MTT,6.2 µg/mL
CC(C)c1ccc(-n2cc(-c3cn(C4CC(O)C(CO)O4)c(=O)[nH]c3=O)nn2)cc1,TK- KOS ACVr,,>50 µM
Cc1cn([C@@H]2C=C(CO)[C@@H](CO)O2)c(=O)[nH]c1=O,,,33 µg/mL
CC1=C[C@H](n2ccc(=O)[nH]c2=O)CC1(CO)CO,,,>100 µg/mL
S=C(S)OC1CCCCCCCCCCC1,,plaque count,7.5 µM
C=C1[C@H](CO)OC[C@@H]1n1ccc(=O)[nH]c1=O,,,>100 µg/mL
CCCCc1cn([C@@H]2O[C@H](COP(=O)(O)O)[C@@H](O)[C@H]2O)c(=O)nc1N,KOS,,>400 µg/mL
O=c1c2ncn(COCCO)c2[nH]c2ncc(CO)n12,VMW 1837,cytopathic effect,>3.2 µg/mL
COc1cccc(-c2ccc(C(Nc3ccccc3)N3c4ccccc4Sc4cc(O)c(CN5C(=O)c6ccccc6C5=O)cc43)cc2)c1,753166,cytopathic effect,7.8 µg/mL
Cc1[nH]c2nc3c(ncn3COCCO[Si](C)(C)C(C)(C)C)c(=O)n2c1C(c1ccccc1)(c1ccccc1)c1ccccc1,KOS,cytopathic effect,>10 µg/mL
C/C(=C\Cn1cc(C)c(=O)[nH]c1=O)CO,,,>100 µg/mL
CNc1ncnc2c1ncn2[C@H]1S[C@@H](CO)C[C@@H]1N=[N+]=[N-],,,>100 µg/mL
Cc1cn([C@@H]2O[C@H](COP(=O)(O)O)[C@@H](O)[C@H]2O)c(=O)nc1N,KOS,,>400 µg/mL
Nc1nc2c(ncn2COC(CO)CO)c(=O)[nH]1,,plaque count,0.0007 µM
Nc1nc2c(ncn2C/C=C/CO)c(=O)[nH]1,,cytopathic effect,>100 µg/mL
Fc1ccc(-c2nn3c(NC4CCCC4)ncnc3c2-c2ccnc(Nc3nc4ccccc4s3)n2)cc1,,hybridisation,>40 µM
O=c1c2ncn(COCCO)c2[nH]c2ncc(C(c3ccccc3)(c3ccccc3)c3ccccc3)n12,KOS,cytopathic effect,>16 µg/mL
CC1=C[C@H](n2ccc(N)nc2=O)C[C@]1(C)CO,,,>100 µg/mL
O=C(NCc1ccc(Cl)cc1)c1c[nH]c2c(F)cc(CCCO)cc2c1=O,ARAA13 (V813M (III)),,0.1 µM
S=C(S)OC1CCCCC1,,plaque count,42.8 µM
Nc1nc(=S)n([C@@H]2O[C@H](CO)[C@@H](O)[C@@H]2O)cc1F,F,,0.02 µg/mL
O=C(c1ccc([N+](=O)[O-])cc1)n1c(-c2ccccc2)nc2ccccc21,KOS,,>20 µg/mL
O=c1c2cccc(Cl)c2[nH]c2cc(O)cc(O)c12,KOS,,10 µM
O=C(O)c1ccccc1-c1nc2ccccc2n1C(=O)c1ccccc1Br,KOS,,>100 µg/mL
C=C1[C@H](CO)[C@H]1Cn1cnc2c(N)ncnc21,,,>100 µM
O=C(c1ccc([N+](=O)[O-])cc1)n1c(-c2ccc([N+](=O)[O-])cc2)nc2ccccc21,KOS,,100 µg/mL
CCCCCCCCc1cn([C@@H]2O[C@H](COP(=O)(O)O)[C@@H](O)[C@H]2O)c(=O)nc1N,McIntyre,,>400 µg/mL
CC1=C[C@H](n2ccc(N)nc2=O)CC1(CO)CO,,,>100 µg/mL
Nc1ccn([C@H]2CC[C@H](CO)O2)c(=S)n1,,,>100 µM
Nc1ncnc2c1ncn2C/C=C\CO,,cytopathic effect,>100 µg/mL
NC(=O)CCCN(CCCC(N)=O)S(=O)(=O)c1cccc(Nc2nc(Nc3cccc(S(=O)(=O)N(CCCC(N)=O)CCCC(N)=O)c3)nc(Nc3ccc(-c4ccc(Nc5nc(Nc6cccc(S(=O)(=O)N(CCCC(N)=O)CCCC(N)=O)c6)nc(Nc6cccc(S(=O)(=O)N(CCCC(N)=O)CCCC(N)=O)c6)n5)cc4S(=O)(=O)O)c(S(=O)(=O)O)c3)n2)c1,Patton,ELISA,8.9 µM
Nc1nc2c(ncn2[C@@H]2C[C@H](CO)[C@H]2O)c(=O)[nH]1,,plaque count,0.8 µM
Cc1cn([C@@H]2OC3COP(=O)(O)OC3[C@H]2O)c(=O)nc1N,F,,>400 µg/mL
C/C(=C\Cn1cc(I)c(=O)[nH]c1=O)CO,,,>100 µg/mL
C=C1[C@H](CO)[C@H]1Cn1cnc2c(=O)[nH]c(N)nc21,,,>100 µM
[N-]=[N+]=N[C@@H]1C[C@@H](CO)S[C@H]1n1cnc2c(Cl)ncnc21,,,>100 µg/mL
Nc1nc2c(ncn2COCCO)c(=O)[nH]1,,plaque count,0.2–0.5 µg/mL
C=Cc1c(C)c2cc3nc(c(CC(=O)O)c4nc(cc5[nH]c(cc1[nH]2)c(C)c5CC)C(C)=C4C(=O)O)[C@@H](CCC(=O)O)[C@@H]3C,KOS,plaque count,20.93 µM
COc1ccc2sc3c(c2c1)SCCNC3=O,,virus yield,0.35 µM
O=c1[nH]c(=O)n([C@H]2O[C@@H](CO)[C@H](O)[C@@H]2O)cc1I,,,>100 µM
Cc1cn([C@H]2CC[C@@H](CO)O2)c(=S)[nH]c1=O,Hangal,,0.21 µg/mL
CC(C)Oc1ccccc1NC(=O)Nc1ccc2cnccc2n1,,plaque count,>100 µg/mL
Nc1nc2c(ncn2COC(CO)CO)c(=O)[nH]1,KOS,cytopathic effect,0.008 µg/mL
COCCOCSC(=S)OC1CCCCC1,,plaque count,23.4 µM
O=C(c1ccccc1Br)n1c(-c2ccccc2[N+](=O)[O-])nc2ccccc21,KOS,,>100 µg/mL
CC(=O)OC[C@H]1O[C@@H](n2cc(-c3cc(-c4ccc(C(C)C)cc4)no3)c(=O)[nH]c2=O)CC[C@@H]1O,,,0.08 µg/mL
Nc1nc2c(ncn2COC(CO)CO)c(=O)[nH]1,95-2723,PCR,>50 µM
O=C(NCc1ccc(Cl)cc1)c1c[nH]c2ccc(CCCO)cc2c1=O,,plaque count,6.7 µM
O=c1[nH]c(=O)n(C2CC(O)C(CO)O2)cc1-c1cc(Br)no1,KOS,,7 µM
[N-]=[N+]=N[C@H]1C[C@H](CO)S[C@@H]1n1ccc(=O)[nH]c1=O,,,>100 µg/mL
Nc1nc2c(ncn2COCCO)c(=O)[nH]1,,,0.15 µg/mL
O=c1c2ncn(COCCO)c2nc2[nH]c(-c3ccccc3)c(-c3ccc(C(c4ccccc4)c4ccccc4)cc3)n12,VMW 1837,cytopathic effect,>16 µg/mL
Fc1ccc(-c2[nH]n3c(=S)nccc3c2-c2ccnc(NC3CCCC3)n2)cc1,,hybridisation,>40 µM
Nc1nc2c(ncn2C[C@]2(CO)C[C@H]2CO)c(=O)[nH]1,KOS,plaque count,0.023 µg/mL
Cn1cc(C(=O)NCc2ccc(Cl)cc2)c(=O)c2cc(CN3CCOCC3)ccc21,6 isolates,plaque count,3.5 µM
Nc1ncc2c(ncn2COC(CO)CO)n1,,,0.1–1 µM
Nc1nccc2c1ncn2[C@@H]1C[C@H](CO)[C@@H](O)[C@H]1O,TK-/VMW 1837,cytopathic effect,>400 µg/mL
S=C(S)OC1CC2CCC1C2,,plaque count,19.8 µM
Cc1cn([C@@H]2OCC(CO)=C2F)c(=O)[nH]c1=O,,,>100 µg/mL
Cc1cn([C@H]2C[C@H](N=[N+]=[N-])[C@@H]([C@@H](C)O)O2)c(=O)[nH]c1=O,,,150 µg/mL
O=C(Cc1ccccc1)NCCCCNC(=O)Cc1ccccc1,,plaque count,>20 µg/mL
O=c1[nH]c(=O)n(CC=C(CO)CO)cc1I,,,21.1 µg/mL
C=C[C@@](CO)(CCn1cnc2c(N)ncnc21)c1ccccc1,,,>100 µg/mL
Cc1csc(Nc2nccc(-c3c(-c4ccc(F)cc4)nn4c(NC5CCCC5)ncnc34)n2)n1,,hybridisation,>40 µM
Cc1cn([C@H]2C[C@@H](N=[N+]=[N-])[C@@H](CO)O2)c(=O)[nH]c1=O,KOS,plaque count,>100 µM
COc1ccccc1/C=C/c1cc(=O)oc2c1ccc1occ(-c3ccc(-c4ccccc4)cc3)c12,,cytopathic effect,250 µg/mL
Nc1ccn([C@H]2C[C@H](CO)[C@@H](CO)O2)c(=O)n1,,,2.8 µg/mL
O=C(NCc1ccc(Cl)cc1)c1c[nH]c2ccc(CCCO)cc2c1=O,DJL,plaque count,18 µM
CCC(=O)C(CCCCCCOc1ccc(OCCCCCCC(C(=O)CC)C(=O)CC)cc1)C(=O)CC,Sheely,plaque count,>2 µg/mL
CCCCCCc1cn([C@@H]2OC3COP(=O)(O)OC3[C@H]2O)c(=O)nc1N,KOS,,>400 µg/mL
[N-]=[N+]=N[C@H]1C[C@@H](CO)S[C@H]1n1ccc(N)nc1=O,,,>100 µg/mL
CC(=O)NC1C(O)OC(CO)C(O)C1OC1OC(C(=O)[O-])C(OC2OC(CO)C(O)C(OC3OC(C(=O)[O-])C(O)C(O)C3O)C2NC(C)=O)C(O)C1O.[Na+].[Na+],KOS,,>400 µg/mL

A second listing of 9 rows from above:

structure | strain or isolate | method | result
Cc1cn([C@@H]2OCC(CO)=C2F)c(=O)[nH]c1=O |  |  | >100 µg/mL
Cc1csc(Nc2nccc(-c3c(-c4ccc(F)cc4)nn4c(NC5CCCC5)ncnc34)n2)n1 |  | hybridisation | >40 µM
S=C(S)OC1CCCCC1 |  | plaque count | 42.8 µM
Nc1nc2c(ncn2COC(CO)CO)c(=O)[nH]1 | 95-2723 | PCR | >50 µM
O=c1c2ncn(COCCO)c2nc2[nH]c(-c3ccccc3)c(-c3ccc(C(c4ccccc4)c4ccccc4)cc3)n12 | VMW 1837 | cytopathic effect | >16 µg/mL
[N-]=[N+]=N[C@H]1C[C@H](CO)S[C@@H]1n1ccc(=O)[nH]c1=O |  |  | >100 µg/mL
Cc1cn(C[C@H]2C[C@H]2CO)c(=O)[nH]c1=O |  | cytopathic effect | >100 µg/mL
CC1=C[C@H](n2ccc(N)nc2=O)C[C@]1(C)CO |  |  | >100 µg/mL
C/C(=C\Cn1cc(I)c(=O)[nH]c1=O)CO |  |  | >100 µg/mL